A mixed list of measured activities; the numbers were collected in NIAID ChemDB.

Common to all: target-level tests; species: HIV-1; target: Reverse transcriptase; read-out: IC50

a–b is a range or a potency band. Lines come from different laboratories, so protocols vary. ICn: concentration for n% inhibition. Blank or dashed fields: not listed here.

SMILES,mutations,read by,strain,value
CC(C)(C#Cc1ccc(NC(=O)CSc2nnnn2-c2cc(C3CC3)ccc2Cl)c(Cl)c1)NC(=O)CN,RT-K103 Y181C,PicoGreen / fluorescence,-,<1 µM
Cc1cc(S(N)(=O)=O)ccc1NC(=O)CSc1nnc(C(F)F)n1-c1ccc(C)c2c1CCCC2,-,nucleotide incorporation / radiometric,-,<0.05 µM
O=C(CSc1nnnn1-c1ccc(C2CC2)cc1Cl)Nc1ccc(S(=O)(=O)Nc2ccncc2)cc1Cl,-,PicoGreen / fluorescence,WT,<1 µM
CCN1c2ncc(CCOc3ccc(CC(=O)O)c4ccccc34)cc2C(=O)Nc2c(C)ccnc21,-,nucleotide incorporation / radiometric,WT,<0.1 µM
CCc1ccc(-n2c(Br)nnc2SCC(=O)Nc2ccc(C(=O)NCCCCO)cc2Cl)c2ccccc12,RT-Y181C,nucleotide incorporation / radiometric,-,<0.05 µM
CC(=O)Nc1ccc2c(c1)CN(c1nn3c(C)nnc3c3ccccc13)CC2,-,RT activity / fluorescence,98US_MSC5016,7.6 µM
CCOC(=O)C(C)NS(=O)(=O)c1ccc(NC(=O)CSc2nnc(C(F)F)n2-c2ccc(C)c3c2CCCC3)c(Cl)c1,RT-Y188L,nucleotide incorporation / radiometric,-,>0.1 µM
CCc1cc(NCc2nc3c(C)ccc(C)c3o2)c(=O)[nH]c1C,-,nucleotide incorporation,-,0.047 µM
CC(C)(C#Cc1ccc(NC(=O)CSc2nnnn2-c2cc(C3CC3)cc(C(F)(F)F)c2Cl)c(Cl)c1)C(=O)O,-,PicoGreen / fluorescence,WT,<1 µM
Cc1cc(S(N)(=O)=O)ccc1NC(=O)CSc1nnc(Br)n1-c1ccc2c3c(cccc13)CC2,RT-Y188L,nucleotide incorporation / radiometric,-,>0.1 µM
CCNc1ccccc1N1CCN(C(=O)c2cc3ccccc3[nH]2)CC1,-,nucleotide incorporation,-,<100 µM
NS(=O)(=O)c1ccc(NC(=O)CSc2nnc(Br)n2-c2ccc(C3CCC3)c3ccccc23)c(Cl)c1,-,nucleotide incorporation / radiometric,-,<0.05 µM
CN(C)CCCNC(=O)C(C)(C)C#Cc1ccc(NC(=O)CSc2nnnn2-c2ccc(CC3CC3)cc2Cl)c(Cl)c1,RT-K103 Y181C,PicoGreen / fluorescence,-,<1 µM
CCc1ccc(-n2c(Br)nnc2SCC(=O)Nc2ccc(C(=O)NCC(O)CO)cc2Cl)c2ccccc12,-,nucleotide incorporation / radiometric,-,<0.05 µM
CC(C)(C)c1ccc(-n2nnnc2SCC(=O)Nc2ccc(-c3ccc(S(C)(=O)=O)cc3)cc2Cl)c(Cl)c1,RT-K103 Y181C,PicoGreen / fluorescence,-,<1 µM
C=C(C)OC(=O)N1c2cc(Cl)ccc2NC(=S)C1(C)C,-,radiometric,D34,0.13 µM
COc1cc2cc(C(=O)N3CCN(c4ncccc4NC(C)C)CC3)[nH]c2cc1OC,-,nucleotide incorporation,-,~100 µM
COP(=O)(c1cc(C)cc(CCC#N)c1)c1c(C(N)=O)[nH]c2ccc(Cl)c(F)c12,-,RT activity,-,0.336 µM
Cc1ccc(-n2nnnc2SCC(=O)Nc2ccc(-c3ccc(CC(N)=O)cc3)cc2Cl)c(Cl)c1,-,PicoGreen / fluorescence,WT,<1 µM
CCc1ccc(-n2c(Br)nnc2SCC(=O)Nc2ccc(C(=O)NCC(=O)OC)cc2Cl)c2ccccc12,-,nucleotide incorporation / radiometric,-,<0.05 µM
CCN1c2ncc(CCOc3ccc(CCC(=O)O)c4c3CCCC4)cc2C(=O)N(C)c2ccc(Cl)nc21,RT-Y188L,nucleotide incorporation / radiometric,-,0.1–1 µM
CCN1c2ncc(CCOc3ccc(NC(=O)C4CC4C(=O)O)cc3C)cc2C(=O)N(C)c2cccnc21,RT-K103N Y181C,nucleotide incorporation / radiometric,IIIB,>0.1 µM
COc1nnc2c3ccccc3c(N3CCc4ccc(N)cc4C3)nn12,-,RT activity / fluorescence,98US_MSC5016,5.05 µM
CCN1c2ncc(CCOc3ccc(C(=O)O)c4c3CCN(C(=O)N(C)C)C4)cc2C(=O)N(C)c2cccnc21,RT-Y188L,nucleotide incorporation / radiometric,-,0.1–1 µM
CCCNc1cccnc1N1CCN(Cc2cc(C)c(OC)c(C)c2)CC1,-,nucleotide incorporation,-,>100 µM
CC(Sc1nnc(Br)n1-c1ccc(C2CC2)c2ccccc12)C(=O)Nc1ccc(S(N)(=O)=O)cc1Cl,-,nucleotide incorporation / radiometric,-,<0.05 µM
CC(C)(C#Cc1ccc(NC(=O)CSc2nnnn2-c2ccc(C3CC3)cc2Cl)c(Cl)c1F)OCCOc1ccc[n+]([O-])c1,-,PicoGreen / fluorescence,WT,<1 µM
CCc1ccc(-n2c(Br)nnc2SCC(=O)Nc2ccc(C(=O)NCCN3CCCC3)cc2Cl)c2ccccc12,RT-Y188L,nucleotide incorporation / radiometric,-,>0.1 µM
CCN1c2ncc(CCOc3ccc(CC(=O)O)c4ccccc34)cc2C(=O)N(C)c2ccc(C)nc21,RT-K103N Y181C,nucleotide incorporation / radiometric,-,0.1–1 µM
CCN1c2ncc(CCOc3ccc(-c4cnc[nH]4)cc3C)cc2C(=O)N(C)c2cccnc21,-,nucleotide incorporation / radiometric,IIIB,<0.05 µM
Cc1c(N2CCc3ccccc3C2)nn2c(C)nnc2c1C,-,RT activity / fluorescence,98US_MSC5016,47.4 µM
O=C(COc1ccc(NC(=O)CSc2nnnn2-c2ccc(C3CC3)cc2Cl)c(Cl)c1)NCCc1cccnc1,-,PicoGreen / fluorescence,WT,<1 µM
CCc1ccc(-n2c(Br)nnc2SCC(=O)Nc2ccc(C(=O)NCCC#N)cc2Cl)c2ccccc12,RT-Y181C,nucleotide incorporation / radiometric,-,0.05–0.1 µM
CC(C)(C#Cc1ccc(NC(=O)CSc2nnnn2-c2ccc(C(C)(C)C)cc2Cl)c(Cl)c1)OCC(=O)NCc1ccco1,-,PicoGreen / fluorescence,WT,<1 µM
COC(=O)c1ccc2c(c1)CN(c1nn3c(C)nnc3c3ccccc13)CC2,-,RT activity / fluorescence,98US_MSC5016,0.62 µM
CC(C)(C#Cc1ccc(NC(=O)CSc2nnnn2-c2ccc(C3CC3)cc2Cl)c(Cl)c1F)OCCN1CCC(F)(F)C1,RT-K103 Y181C,PicoGreen / fluorescence,-,<1 µM
Cc1ccc2c(C)cc(C)c(-n3c(SCC(=O)Nc4ccc(S(N)(=O)=O)cc4Cl)nnc3C(F)F)c2n1,RT-Y181C,nucleotide incorporation / radiometric,-,0.05–0.1 µM
CCN1c2ncc(CCOc3ccc(/C=C(\C)C(=O)O)c4ccccc34)cc2C(=O)Nc2c(C)cc(Cl)nc21,RT-Y188L,nucleotide incorporation / radiometric,-,>1 µM
CC(C)(C#Cc1ccc(NC(=O)CSc2nnnn2-c2ccc(C3CC3)cc2Cl)c(Cl)c1)C(=O)NC(C)(C)C(=O)O,-,PicoGreen / fluorescence,WT,<1 µM
CCc1cc(C2CC2)ccc1-n1c(Br)nnc1SCC(=O)Nc1ccc(C(=O)O)cc1Cl,RT-Y188L,nucleotide incorporation / radiometric,-,>0.1 µM
CCN1c2ncc(CCOc3ccc(C(=O)NCC4(C(=O)O)CCCC4)cc3C)cc2C(=O)N(C)c2cccnc21,-,nucleotide incorporation / radiometric,IIIB,<0.05 µM
CC(C)(C#Cc1ccc(NC(=O)CSc2nnnn2-c2ccc(C3CC3)cc2Cl)c(Cl)c1F)NC(=O)c1cc[n+]([O-])cc1,RT-K103 Y181C,PicoGreen / fluorescence,-,<1 µM
O=C(CSc1nnc(Br)n1-c1ccc(C2CC2)cc1Cl)Nc1ccc(S(=O)(=O)O)cc1Cl,RT-Y188L,nucleotide incorporation / radiometric,-,>0.1 µM
CC(C)(C)c1ccc(-n2nnnc2SCC(=O)Nc2ccc(S(=O)(=O)NCc3ccccc3)cc2Cl)c(Cl)c1,-,PicoGreen / fluorescence,WT,<1 µM
CCN1c2ncc(CCOc3ccc(-c4ccc(O)cc4)cc3C)cc2C(=O)N(C)c2cccnc21,-,nucleotide incorporation / radiometric,IIIB,<0.05 µM
CCN1c2ncc(CCOc3ccc(CC(C)C(=O)O)c4ccccc34)cc2C(=O)N(C)c2ccc(C)nc21,-,nucleotide incorporation / radiometric,WT,<0.1 µM
CN1CCN(CCOC(C)(C)C#Cc2ccc(NC(=O)CSc3nnnn3-c3ccc(C4CC4)cc3Cl)c(Cl)c2)CC1,RT-K103 Y181C,PicoGreen / fluorescence,-,<1 µM
FC(F)(F)Cc1nnc2c3ccccc3c(N3CCc4ccccc4C3)nn12,-,RT activity / fluorescence,IIIB,0.59 µM
CC(C)(C)c1ccc(-n2nnnc2SCC(=O)Nc2ccc(S(=O)(=O)Nc3ccccc3)cc2Cl)c(Cl)c1,RT-K103 Y181C,PicoGreen / fluorescence,-,<1 µM
CC(C)Nc1ccnnc1N1CCN(C(=O)c2cc3ccccc3[nH]2)CC1,-,nucleotide incorporation,-,<100 µM
COc1ccc2c(c1)CCN(c1nn3c(C)nnc3c3ccccc13)C2,-,RT activity / fluorescence,KER2008,5.18 µM
CC(C)(C)c1ccc(-n2nnnc2SCC(=O)Nc2ccc(OCC(=O)Nc3ccc(O)cc3)cc2Cl)c(Cl)c1,-,PicoGreen / fluorescence,WT,<1 µM
CCN1c2ncc(CCOc3ccc(/C=C(\C)C(=O)O)c4ccccc34)cc2C(=O)N(C)c2cccnc21,RT-V106A,nucleotide incorporation / radiometric,-,>1 µM
NS(=O)(=O)c1ccc(NC(=O)CSc2nnc(Br)n2-c2ccc(C3CC3)cc2Cl)c(Cl)c1,RT-Y181C,nucleotide incorporation / radiometric,-,<0.05 µM
CC(C)(C)c1ccc(-n2nnnc2SCC(=O)Nc2ccc(S(=O)(=O)NCC(=O)O)cc2Cl)c(Cl)c1,RT-K103 Y181C,PicoGreen / fluorescence,-,<1 µM
CCc1ccc(-n2c(Br)nnc2SCC(=O)Nc2ccc(C(=O)NCC3CCNCC3)cc2Cl)c2ccccc12,-,nucleotide incorporation / radiometric,-,>0.1 µM
CCN1c2ncc(CCOc3ccc(CC(=O)NN)c4ccccc34)cc2C(=O)N(C)c2cccnc21,RT-Y188L,nucleotide incorporation / radiometric,-,0.1–1 µM
Cc1ccc(C(F)(F)F)c(Cl)c1-n1nnnc1SCC(=O)Nc1ccc(C#CC(C)(C)O)cc1Cl,-,PicoGreen / fluorescence,WT,<1 µM
Cc1ccc(-n2c(SCC(=O)Nc3ccc(S(=O)(=O)NC(C)C(=O)O)cc3Cl)nnc2C(F)F)c2c1CCCC2,RT-Y188L,nucleotide incorporation / radiometric,-,>0.1 µM
O=C(O)Cc1ccc(-c2ccc(NC(=O)CSc3nnnn3-c3ccc(C4CC4)cc3Cl)c(Br)c2)cc1,-,PicoGreen / fluorescence,WT,<1 µM
CCc1ccc(-n2c(I)nnc2SCC(=O)Nc2ccc(S(N)(=O)=O)cc2Cl)c2ccccc12,RT-Y181C,nucleotide incorporation / radiometric,-,0.05–0.1 µM
COC(=O)CN(C)CCOc1ccc(-c2ccc(NC(=O)CSc3nnnn3-c3ccc(C(C)(C)C)cc3Cl)c(Cl)c2)cc1,RT-K103 Y181C,PicoGreen / fluorescence,-,<1 µM
Cc1cc(C)c2ccccc2c1-n1c(CF)nnc1SCC(=O)Nc1ccc(S(N)(=O)=O)cc1Cl,RT-Y188L,nucleotide incorporation / radiometric,-,>0.1 µM

A second listing of 7 rows from above:

SMILES	mutations	read by	strain	value
COC(=O)CN(C)CCOc1ccc(-c2ccc(NC(=O)CSc3nnnn3-c3ccc(C(C)(C)C)cc3Cl)c(Cl)c2)cc1	RT-K103 Y181C	PicoGreen / fluorescence	-	<1 µM
CC(C)(C)c1ccc(-n2nnnc2SCC(=O)Nc2ccc(S(=O)(=O)Nc3ccccc3)cc2Cl)c(Cl)c1	RT-K103 Y181C	PicoGreen / fluorescence	-	<1 µM
CCN1c2ncc(CCOc3ccc(CC(=O)O)c4ccccc34)cc2C(=O)N(C)c2ccc(C)nc21	RT-K103N Y181C	nucleotide incorporation / radiometric	-	0.1–1 µM
CCc1ccc(-n2c(Br)nnc2SCC(=O)Nc2ccc(C(=O)NCCN3CCCC3)cc2Cl)c2ccccc12	RT-Y188L	nucleotide incorporation / radiometric	-	>0.1 µM
Cc1ccc(-n2nnnc2SCC(=O)Nc2ccc(-c3ccc(CC(N)=O)cc3)cc2Cl)c(Cl)c1	-	PicoGreen / fluorescence	WT	<1 µM
CC(=O)Nc1ccc2c(c1)CN(c1nn3c(C)nnc3c3ccccc13)CC2	-	RT activity / fluorescence	98US_MSC5016	7.6 µM
CC(C)(C#Cc1ccc(NC(=O)CSc2nnnn2-c2ccc(C(C)(C)C)cc2Cl)c(Cl)c1)OCC(=O)NCc1ccco1	-	PicoGreen / fluorescence	WT	<1 µM